Pooled drug test results. Numbers come from NIAID ChemDB, via PubChem.

Common to all: whole-cell or culture tests; species: Mycobacterium avium; measure: MIC

Rows are shuffled and stem from different studies. An empty or dashed field is not shown.

SMILES	conditions	strain	result
c1ccc(CSc2ncn[nH]2)nc1	-	MY330/88	1000 µM
O=C(Nc1ccc(Cl)cc1)c1cc(Cl)ccc1OP(=O)(OCc1ccccc1)OCc1ccccc1	14 d	MY330/88	62.5 µM
CO[C@H]1/C=C/O[C@@]2(C)Oc3c(C)c(O)c4c(O)c(c(/C=N/N5CCN(C)CC5)c(O)c4c3C2=O)NC(=O)/C(C)=C\C=C\[C@H](C)[C@H](O)[C@@H](C)[C@@H](O)[C@@H](C)[C@H](OC(C)=O)[C@@H]1C	-	Isolate 91-0129	30 µg/mL
c1ccc2[nH]c(SCc3ccncc3)nc2c1	-	MY330/88	1000 µM
CCOc1c(N2CCC(C(C)(C)N)C2)c(F)cc2c(=O)c(C(=O)O)cn(C3CC3)c12	-	PI2/8	0.03 µg/mL
Cc1c(CN2CCN(C)CC2)c(CN2CCN(C)CC2)c(-c2ccc(Cl)cc2)n1C1CCCCC1	-	103317	>64 µg/mL
CCNCC1CCN(c2c(F)cc3c(=O)c(C(=O)O)cn4c3c2CCC4C)C1	-	PI4/44	8 µg/mL
NC(=S)c1cc(SCc2ccccn2)ccn1	-	MY330/88	1000 µM
CO[C@H]1/C=C/O[C@@]2(C)Oc3c(C)c(O)c4c(O)c(c(/C=N/N5CCN(C)CC5)c(O)c4c3C2=O)NC(=O)/C(C)=C\C=C\[C@H](C)[C@H](O)[C@@H](C)[C@@H](O)[C@@H](C)[C@H](OC(C)=O)[C@@H]1C	-	6-28	10 µg/mL
C[C@@H]1CN(c2c(F)c(N)c3c(=O)c(C(=O)O)cn(C4CC4)c3c2F)C[C@H](C)N1	-	I	8 µg/mL
c1ccc2c(CSc3nc4ccccc4[nH]3)cccc2c1	-	MY330/88	125 µM
O=C(Nc1ccc(Cl)cc1)c1cc(Cl)ccc1OP(=O)(Oc1ccccc1)Oc1ccccc1	7 d	MY330/88	16 µM
CCn1cc(C(=O)O)c(=O)c2cc(F)c(N3CCC(CNCCO)C3)c(F)c21	-	PI2/8	0.25 µg/mL
Cc1cc(CN2CCN(C)CC2)c(C)n1Cc1ccccc1	-	103317	>64 µg/mL
c1ccc(CSc2nc3ccccc3[nH]2)nc1	-	MY330/88	1000 µM
CC[C@H]1OC(=O)[C@H](C)[C@@H](O[C@H]2C[C@@](C)(OC)[C@@H](O)[C@H](C)O2)[C@H](C)[C@@H](O[C@@H]2O[C@H](C)C[C@H](N(C)C)[C@H]2O)[C@](C)(OC)C[C@@H](C)C(=O)[C@H](C)[C@@H](O)[C@]1(C)O	-	RG2	0.12 µg/mL
CC[C@H]1OC(=O)[C@H](C)[C@@H](O[C@H]2C[C@@](C)(OC)[C@@H](O)[C@H](C)O2)[C@H](C)[C@@H](O[C@@H]2O[C@H](C)C[C@H](N(C)C)[C@H]2O)[C@](C)(O)C[C@@H](C)CN(C)[C@H](C)[C@@H](O)[C@]1(C)O	-	1435	16 µg/mL
Cc1c(CN2CCN(C)CC2)cc(-c2ccc(Cl)cc2)n1C1CCCCC1	-	103317	>64 µg/mL
Cc1c(F)c(N2CCNC(C)C2)c(C(F)(F)F)c2c1c(=O)c(C(=O)O)cn2C1CC1	-	PI4/44	16 µg/mL
c1cc(CSc2ncn[nH]2)ccn1	-	MY330/88	>1000 µM
N[C@@H]1CONC1=O	-	1435	8 µg/mL
CC(C)(C)n1cc(C(=O)O)c(=O)c2cc(F)c(N3CCNCC3)nc21	-	PI2/8	0.12 µg/mL
Cc1c(CN2CCN(C)CC2)cc(-c2ccc(Cl)cc2)n1Cc1ccccc1	-	103317	8 µg/mL
CC[C@H]1OC(=O)[C@H](C)[C@@H](O[C@H]2C[C@@](C)(OC)[C@@H](O)[C@H](C)O2)[C@H](C)[C@@H](O[C@@H]2O[C@H](C)C[C@H](N(C)C)[C@H]2O)[C@](C)(OC)C[C@@H](C)C(=O)[C@H](C)[C@@H](O)[C@]1(C)O	-	1435-C clarithromycin-resistant	>512 µg/mL
Cc1c(CN2CCSCC2)cc(-c2ccccc2)n1-c1ccc(F)cc1	-	103317	2 µg/mL
O=C(O)c1cn(C2CC2)c2c(F)c(N3CCN4CCC3C4)c(F)cc2c1=O	-	SMT	2 µg/mL
O=C(O)c1cn(C2CC2)c2c(F)c(N3CCN4CCC3C4)c(F)cc2c1=O	-	PI4/44	0.5 µg/mL
Cc1cc(CN2CCOCC2)c(C)n1C1CCCCC1	-	103317	>64 µg/mL
O=C1c2ccccc2OP(=O)(c2ccccc2)N1c1ccccc1	14 d	MY330/88	>500 µM
Cc1c(CN2CCOCC2)c(CN2CCOCC2)c(-c2ccc(Cl)cc2)n1C1CCCCC1	-	103317	8 µg/mL
O=C1c2cc(Cl)ccc2OP(=O)(c2ccccc2)N1c1ccc(Cl)c(Cl)c1	14 d	MY330/88	16 µM
CCn1cc(C(=O)O)c(=O)c2ccc(N3CC(O)C(O)C(O)C3)nc21	-	PI2/6	>32 µg/mL
O=C(Nc1ccc(C(F)(F)F)cc1)c1cc(Cl)ccc1OP(=O)(Oc1ccccc1)Oc1ccccc1	14 d	MY330/88	8 µM
CC1CN(c2c(F)c(N)c3c(=O)c(C(=O)O)cn(C4CC4)c3c2F)CCN1C	-	101	0.25 µg/mL
O=C(Nc1ccc(Cl)c(Cl)c1)c1cc(Cl)ccc1OP(=O)(OCc1ccccc1)OCc1ccccc1	7 d	MY330/88	125 µM
C[C@@H]1CN(c2c(F)c(N)c3c(=O)c(C(=O)O)cn(C4CC4)c3c2F)C[C@H](C)N1	-	PI4/44	0.5 µg/mL
Cc1[nH]c(C)c(CN2CCOCC2)c1CN1CCOCC1	-	103317	>64 µg/mL
CO[C@H]1/C=C/O[C@@]2(C)Oc3c(C)c(O)c4c(=O)c(c5oc6cc(N7CCN(CC(C)C)CC7)cc(=O)c6nc5c4c3=C2O)NC(=O)/C(C)=C\C=C\[C@H](C)[C@H](O)[C@@H](C)[C@@H](O)[C@@H](C)[C@H](OC(C)=O)[C@@H]1C	-	453	0.031 µg/mL
O=C(O)c1cn(C2CC2)c2c(Cl)c(N3C[C@@H]4CCCN[C@@H]4C3)c(F)cc2c1=O	-	II	4 µg/mL

A second listing of 3 rows from above:

| SMILES | conditions | strain | result |
|---|---|---|---|
| c1ccc(CSc2nc3ccccc3[nH]2)nc1 | - | MY330/88 | 1000 µM |
| CO[C@H]1/C=C/O[C@@]2(C)Oc3c(C)c(O)c4c(O)c(c(/C=N/N5CCN(C)CC5)c(O)c4c3C2=O)NC(=O)/C(C)=C\C=C\[C@H](C)[C@H](O)[C@@H](C)[C@@H](O)[C@@H](C)[C@H](OC(C)=O)[C@@H]1C | - | 6-28 | 10 µg/mL |
| C[C@@H]1CN(c2c(F)c(N)c3c(=O)c(C(=O)O)cn(C4CC4)c3c2F)C[C@H](C)N1 | - | PI4/44 | 0.5 µg/mL |